PMC5764413, “Mutational analysis of Rift Valley fever phlebovirus nucleocapsid protein indicates novel conserved, functional amino acids” (2017)

Legend:
Assay in all cases: cross-linking
[1] = system: RVFV MP12 N protein D34A, N-terminal 6His-tag (p14-N), Rift Valley fever phlebovirus (RVFV), strain MP12, P21700 1-245
[2] = system: RVFV MP12 N protein F11A, N-terminal 6His-tag (p14-N), Rift Valley fever phlebovirus (RVFV), strain MP12, P21700 1-245
[3] = system: RVFV MP12 N protein F149A, N-terminal 6His-tag (p14-N), Rift Valley fever phlebovirus (RVFV), strain MP12, P21700 1-245
[4] = system: RVFV MP12 N protein N181A, N-terminal 6His-tag (p14-N), Rift Valley fever phlebovirus (RVFV), strain MP12, P21700 1-245
[5] = system: RVFV MP12 N protein Y30A, N-terminal 6His-tag (p14-N), Rift Valley fever phlebovirus (RVFV), strain MP12, P21700 1-245

RVFV MP12 N protein D34A, N-terminal 6His-tag (p14-N)
result [1]: binds

RVFV MP12 N protein F11A, N-terminal 6His-tag (p14-N)
result [2]: binds

RVFV MP12 N protein F149A, N-terminal 6His-tag (p14-N)
result [3]: binds

RVFV MP12 N protein N181A, N-terminal 6His-tag (p14-N)
result [4]: binds

RVFV MP12 N protein Y30A, N-terminal 6His-tag (p14-N)
result [5]: binds
